Test results as given in publication PMC5234717 (Journal of Lipid Research, 2016).

System: CCCCCCCCCCCCC/C=C/[C@@H](O)[C@@H](N)COP(=O)(O)O
Assay: purified protein
Details: pH 7.5

S1PL2025 (Burkholderia pseudomallei K96243)
Km: 50.19 ± 8.3 µM | Vmax: 0.0082 µmol/min/mg | kcat/Km: 150 M⁻¹ s⁻¹
